Laboratory results: PubChem BioAssay AID624099 (ICCB-Longwood, 2012)
Test: 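Knock-downs relieving repression by E2 of an HPV18 LCR luciferase reporter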 (primary screen). Cell system: human C33A cervical carcinoma cells (HPV-negative) stably expressing BPV1 E2 and an HPV18 LCR luciferase reporter. Reagent: siRNA pool against human genes, 40 nM. Duration: 72 h. Detection: 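HPV18 LCR reporter light per well, converted to plate-wise z-scores that exclude control wells, and averaged over triplicate plates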. Direction: mean z-score and z-score: higher = stronger reporter signal, weaker E2 silencing. Call rule: 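Hit if mean z-score reaches 2 and two or more of three replicate z-scores also reach 2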.
Here is a random part of about 21,000 reagents. 497 of all reagents (2.4%) were called active. 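Higher z means weaker E2 silencing; only reporter increases were scored, and knock-downs that hurt cell survival may mask genuine repressor factors.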 Reagents against one gene are numbered here. No sequences are given here.

target gene,reagent no.,mean z-score,"z-score, replicate A","z-score, replicate B","z-score, replicate C",outcome
ALDH3B1,1,-1.58,-1.46,-1.43,-1.84,inactive
DUSP19,1,-1.09,-1.07,-1.26,-0.95,inactive
ZNF395,1,-0.19,0.03,0.02,-0.63,inactive
LOC389310 (retired record),1,-0.68,-1.21,-0.41,-0.41,inactive
MAGEA2B,1,0.32,0.46,0.07,0.44,inactive
C8orf76,1,-0.35,-0.62,-0.02,-0.41,inactive
RIPOR1,1,2.8,3.03,2.49,2.87,active
NSMCE2,1,1.52,0.87,1.34,2.35,inactive
NEDD8,1,-0.75,-0.67,-0.84,-0.73,inactive
LOC402279,1,-0.14,-0.18,0.02,-0.25,inactive
HIGD2B,1,-0.25,-0.57,0.11,-0.28,inactive
LOC401128 (retired record),1,0.18,-0.3,0.73,0.12,inactive
PPP3CA,1,-1.03,-0.92,-1.11,-1.06,inactive
CTXN1,1,0.06,0.13,-0.05,0.11,inactive
CREBRF,1,0.02,-0.38,0.11,0.33,inactive
SLCO2A1,1,-0.49,-0.49,-0.37,-0.6,inactive
BMS1P9,1,-4.23,-4.14,-4.41,-4.16,inactive
ZDHHC5,1,0.22,-0.04,0.39,0.31,inactive
ZNF507,1,0.59,0.69,0.65,0.42,inactive
C1orf141,1,0.19,0.44,0.06,0.06,inactive
LUZP2,1,-0.62,-0.78,-0.56,-0.52,inactive
KLHL23,1,0.33,1.48,0.11,-0.59,inactive
PUM3,1,1.77,1.66,1.72,1.92,inactive
LOC387983 (retired record),1,0.14,0.06,0.16,0.2,inactive
RC3H1,1,0.71,0.62,0.53,0.97,inactive
DTNBP1,1,-0.02,-0.02,-0.02,-0.01,inactive
ATXN7,1,3.15,3.16,3.07,3.22,active
TMEM128,1,0.46,0.54,0.34,0.5,inactive
CNTNAP2,1,0.57,0.55,0.6,0.55,inactive
XPNPEP1,1,-1.54,-0.93,-1.75,-1.96,inactive
MRI1,1,-0.53,-0.82,-0.4,-0.36,inactive
LOC400411 (retired record),1,-0.62,-0.45,-0.99,-0.41,inactive
TRAPPC6B,1,-0.61,-0.46,-0.67,-0.7,inactive
HLA-DPB2,1,4.41,4.11,4.52,4.61,active
ABHD17B,1,0.66,0.18,0.6,1.21,inactive
SPATA31H1,1,-0.24,-0.41,-0.07,-0.25,inactive
CA5BP1,1,1.27,1.27,1.21,1.32,inactive
LOC389398 (retired record),1,-0.03,0.03,-0.01,-0.12,inactive
LMAN1L,1,1.63,1.71,1.62,1.56,inactive
IL13,1,-1.75,-1.54,-2.09,-1.62,inactive
PAH,1,1.14,1.04,1.14,1.23,inactive
CASP14,1,0.45,0.64,0.22,0.48,inactive
BLVRA,1,0.22,0.27,0.23,0.16,inactive
INTS3,1,-0.02,-0.18,0.12,0,inactive
APOC4,1,-0.62,-0.71,-0.73,-0.43,inactive
SAMD9L,1,-0.93,-1.1,-0.69,-1,inactive
GLIPR1,1,0.93,0.91,0.79,1.09,inactive
SLC10A1,1,-1.75,-1.68,-1.44,-2.14,inactive
ADCYAP1R1,1,0.88,0.68,0.78,1.18,inactive
S1PR3,1,-1.49,-1.5,-1.36,-1.6,inactive
S1PR3,2,0.28,0.36,0.31,0.17,inactive
DUX4L1,1,2.21,2.36,2.24,2.03,active
IL12A,1,1.65,1.8,1.66,1.5,inactive
BPESC1,1,-1.06,-1.26,-1.23,-0.7,inactive
HMOX1,1,-0.19,-0.5,-0.29,0.21,inactive
NOP2,1,-0.55,-0.64,-0.56,-0.45,inactive
ARL17A,1,0.07,0.2,0.1,-0.08,inactive

Targets listed so far whose gene name begins with L or l:
target gene,reagent no.,mean z-score,"z-score, replicate A","z-score, replicate B","z-score, replicate C",outcome
LOC389310 (retired record),1,-0.68,-1.21,-0.41,-0.41,inactive
LOC402279,1,-0.14,-0.18,0.02,-0.25,inactive
LOC401128 (retired record),1,0.18,-0.3,0.73,0.12,inactive
LUZP2,1,-0.62,-0.78,-0.56,-0.52,inactive
LOC387983 (retired record),1,0.14,0.06,0.16,0.2,inactive
LOC400411 (retired record),1,-0.62,-0.45,-0.99,-0.41,inactive
LOC389398 (retired record),1,-0.03,0.03,-0.01,-0.12,inactive
LMAN1L,1,1.63,1.71,1.62,1.56,inactive
